Measured values from several laboratories, pooled; numbers as filed in NIAID ChemDB.

Shared fields: toxicity to cultured cells; cell line: 1A2; measure: CC50

Neighbouring rows are from separate reports.

SMILES,read by,value
O=C(/C=C/c1ccc(O)c(O)c1)O[C@H]1[C@@H]2C=CO[C@@H](OC3OC(CO)C(O)C(O)C3O)[C@@H]2[C@@]2(CO)O[C@@H]12,XTT,154 µM
NS(=O)(=O)c1ccc(NC(=O)c2ccccc2SSc2ccccc2C(=O)Nc2ccc(S(N)(=O)=O)cc2)cc1,XTT,>40 µM
CC(=O)O[C@H]1CC[C@]2(C)C3CC=C4C5[C@@H](C)[C@H](C)CC[C@]5(C(=O)O)CC[C@@]4(C)[C@]3(C)CC[C@H]2C1(C)C,XTT,39.89 µM
C=C1C(=O)[C@@]23CCC4[C@@](C)(CCC[C@@]4(C)C(=O)O)C2CC[C@H]1C3,XTT,<3.9 µg/mL
CC1(C)CC[C@]2(C(=O)O)CC[C@]3(C)C(=CCC4[C@@]5(C)CC[C@H](O)C(C)(C)[C@@H]5CC[C@]43C)C2[C@@H]1O,XTT,254 µM
COc1cc(O)cc(OC)c1C(=O)c1cc(O)cc(O)c1,XTT / absorbance,>430 µM
CC(C)=CC[C@H]1C[C@]2(C[C@H]3CCC(C)(C)C=C3C)C(=O)C3=C(OC(C)(C)CC3)[C@@](C(=O)c3ccccc3)(C2=O)C1(C)C,XTT / absorbance,23.45 µM
COc1cc(O)cc(OC)c1C(=O)c1ccc(O)c(O)c1,XTT / absorbance,123 µM
CC(=O)O[C@@H](/C=C(\C)C(=O)O)C[C@@H](C)[C@H]1CC[C@@]2(C)C3CC[C@H]4C(C)(C)C(=O)CC[C@]4(C)C3=CC[C@]12C,XTT / absorbance,30.09 µM
COc1cc(-c2cc(=O)c3c(O)cc(O)cc3o2)c(OC)c(OC)c1OC,XTT,>125 µg/mL
C/C(=C\CC[C@@H](C)C1CC[C@@]2(C)[C@@H]3CC[C@H]4C(C)(C)C(=O)CC[C@]4(C)[C@@]3(O)CC[C@]12C)C(=O)O,XTT / absorbance,37.56 µM
COc1c2c(c(C(=O)c3ccccc3)c3c1C=CC(C)(C)O3)OC(C)(C)C=C2,XTT / absorbance,239 µM
C=C1[C@H]2CCC3C(CCC4[C@@]3(C)CCC[C@@]4(C)C(=O)O)(C2)[C@@H]1OC(C)=O,XTT,189.1 µg/mL
Fc1cccc(F)c1C1SCc2nc3ccccc3n21,XTT,56.8 µM
C=CC(C)(C)c1c2c(c(O)c3c(=O)c4ccc(OC)c(O)c4oc13)C=CC(C)(C)O2,XTT / absorbance,>306 µM
CC(C)=CCC[C@@H](C)[C@@H]1CC[C@]2(C)C3=C(CC[C@@]12C)[C@@]1(C)CC[C@H](O)C(C)(C)[C@@H]1CC3,XTT / absorbance,246 µM
CC(C)=CC(=O)C[C@@H](C)[C@H]1CC[C@@]2(C)[C@@H]3CC[C@H]4C(C)(C)[C@@H](O)C[C@H](O)[C@@]45C[C@@]35CC[C@]12C,XTT,33.4 µg/mL
C/C(=C\C=C\[C@@H](C)[C@H]1CC[C@@]2(C)C3CC[C@H]4C(C)(C)C(=O)CC[C@]4(C)[C@@]3(O)[C@@H](O)C[C@]12C)C(=O)O,XTT / absorbance,33.16 µM
COc1c2c(c(C(=O)c3cccc(O)c3)c3c1C=CC(C)(C)O3)OC(C)(C)C=C2,XTT / absorbance,31.06 µM
CC(C)=CC(=O)C[C@@H](C)[C@H]1CC[C@@]2(C)[C@@H]3CC[C@H]4[C@](C)(C(=O)O)[C@@H](O)CC[C@@]45C[C@@]35CC[C@]12C,XTT,125 µg/mL
C[C@@]12CCC[C@@](C)(C(=O)O)C1CC[C@@]13C[C@H](CCC12)[C@@](O)(CO)C3,XTT,>125 µg/mL
O=c1c2cccc(O)c2oc2cccc(O)c12,XTT / absorbance,433 µM
C=C1CC23CCC4[C@@](C)(CCC[C@@]4(C)C(=O)O)C2CC[C@H]1C3,XTT,42.7 µg/mL
O=c1c2cc(O)c(O)cc2oc2cc(O)cc(O)c12,XTT / absorbance,>480.4 µM
COc1cc(O)c2c(=O)cc(-c3cc(OC)c(OC)c(OC)c3OC)oc2c1,XTT,>125 µg/mL
O=C1c2c(O)cc(O)cc2O[C@H](c2ccc(O)cc2)[C@H]1c1c(O)cc(O)c2c(=O)cc(-c3ccc(O)c(O)c3)oc12,XTT / absorbance,179 µM
COc1cc(-c2ccc(O)cc2)cc(OC)c1O,XTT / absorbance,75.57 µM
C=C(CC[C@@H](C)[C@H]1CC[C@@]2(C)C3CCC4C(C)(C)[C@@H](OC(=O)CCCCCCCCCCCCCCC)CC[C@@]45C[C@@]35CC[C@]12C)C(C)(C)O,XTT,>125 µg/mL
COc1cc(-c2cc(O)c(OC)c(OC)c2)ccc1O,XTT / absorbance,107 µM
Cc1c(Sc2ccccc2)n(COCCO)c(=O)[nH]c1=O,XTT,>0.7 µM

Again, the opening 2 rows:

| SMILES | read by | value |
|---|---|---|
| O=C(/C=C/c1ccc(O)c(O)c1)O[C@H]1[C@@H]2C=CO[C@@H](OC3OC(CO)C(O)C(O)C3O)[C@@H]2[C@@]2(CO)O[C@@H]12 | XTT | 154 µM |
| NS(=O)(=O)c1ccc(NC(=O)c2ccccc2SSc2ccccc2C(=O)Nc2ccc(S(N)(=O)=O)cc2)cc1 | XTT | >40 µM |

CCn is the concentration with n% toxicity to the cells.